Source: publication PMC11676875, “In Vitro Screening of an In-House Library of Structurally Distinct Chemotypes Towards the Identification of Novel SARS-CoV-2 Inhibitors” (Pharmaceuticals, 2024)
Where “and” joins values, the source holds several entries; their conditions need not be identical. Identical values can stand only once.

Tested on: SARS-CoV-2
Format: cell-based, SARS-CoV-2 B1.1 lineage
Conditions: ratio CC50 / IC50

For `CCN(CC)CCCC(C)Nc1ccnc2cc(Cl)ccc12` (stereo not shown) [CQ, chloroquine, reference compound], the S.I. was 11 and 11.3.

Molecule `Cc1ccc(Nc2cc3nc4ccccc4n(-c4ccc(C)cc4)c-3cc2=NCC2CCCN3CCCCC23)cc1` (stereo not shown) [Compound 2] has a S.I. of 1.9.

With `c1ccc(Nc2cc3nc4ccccc4n(-c4ccccc4)c-3cc2=NCCCCC23CCCCN2CCCC3)cc1` [Compound 3] the S.I. was 2.6.

In the case of `Clc1ccc2c(NC[C@@H]3CCCN4CCCC[C@H]34)ccnc2c1` [Compound 10], the S.I. is reported as 20.

With `Clc1ccc2c(NCC34CCCN3CCC4)ccnc2c1` [Compound 11] the S.I. was 20 and 20.1.

`CCN(CC)CCCn1c(Cc2ccccc2)nc2cc(C(C)=NNC(N)=S)ccc21` [Compound 13] gave a S.I. of 4.8.

`CC(=NNC(N)=S)c1ccc2c(c1)nc(Cc1ccccc1)n2C[C@@H]1CCCN2CCCC[C@H]12` [Compound 14, 2-(1-{2-Benzyl-1-[((1S,9aR)-octahydro-2H-quinolizin-1-yl)methyl]-1H-benzo[d]imidazol-5-yl}-ethylidene)hydrazine-1-carbothioamide] was tested, and the S.I. was 5.7.

With `CCN(CC)CCCn1c(Cn2nnc3ccccc32)nc2cc(C(C)=NNC(N)=S)ccc21` [Compound 15, 2-(1-{2-[(1H-Benzo[d][1,2, 3]triazol-1-yl)methyl]-1-[3-(N,N-diethylamino)propyl]-1H-benzo-[d]imidazol-5-yl}ethylidene)hydrazine-1-carbothioamide] the S.I. was 4.5.

`CCN(CC)CCCn1c(Cn2nnc3ccccc32)nc2cc(Cl)ccc21` [Compound 18] was tested, and the S.I. was 3.8.

With `Cc1ccc2c(c1)nc(Cn1nnc3ccccc31)n2CC[C@@H]1CCCN2CCCC[C@H]12` [Compound 19] the S.I. was 5.

For `Clc1ccc2c(c1)nc(Cn1nnc3ccccc31)n2CC[C@@H]1CCCN2CCCC[C@H]12` [Compound 20], the S.I. was 2.8.

Molecule `O=c1cccc2n1CC1CC2CN(C(=S)NC2CCCCC2)C1` (stereo not shown) [Compound 23] has a S.I. greater than 1.1.

For `CC(=O)/C=C(/C)Nc1cccc2c3c([nH]c12)CCCC3` [Compound 25], the S.I. was greater than 1.1.
